Test results as given in US8216595B2 (priority 2007, dated 2012).

Tested on: HA antigen
Assay: Example 2: isotypes of induced HA specific antibody (IgG1, IgG2a)
Assay type: in vivo, C57BL/6 female mice
Settings: 1.8 μg split vaccine antigen + 20 μg adjuvant, i.m. two times; ratio calculated from isotype antibody titers

Molecule: CCCCCCCCCCCCCCCC(=O)N[C@@H](CSC[C@@H](COC(=O)CCCCCCCCCCCCCCC)OC(=O)CCCCCCCCCCCCCCC)C(=O)N[C@@H](CO)C(=O)N[C@@H](CCCCN)C(=O)N[C@@H](CCCCN)C(=O)N[C@@H](CCCCN)C(=O)N[C@@H](CCCCN)C(=O)O (racemic) [Pam3Cys-SKKKK, N-palmitoyl-S-[2,3-bis(palmitoyloxy)-(2RS)-propyl]-[R]-cystein-SKKKK]
- IgG2a/IgG1 (%): 7.59%

Molecule: polyinosinic:polycytidylic acid
- IgG2a/IgG1 (%): 6.17%
